Measured values as given in the supplement of paper PMC3578754.

Key:
Assay in all cases: fold change of IC50 against reference virus; higher = more resistant; Cell-culture drug susceptibility tests of virus bearing the protease of each isolate, gathered from many studies.
atazanavir = compound: COC(=O)N[C@H](C(=O)N[C@@H](Cc1ccccc1)[C@@H](O)CN(Cc1ccc(-c2ccccn2)cc1)NC(=O)[C@@H](NC(=O)OC)C(C)(C)C)C(C)(C)C [atazanavir]
ritonavir = compound: CC(C)c1nc(CN(C)C(=O)N[C@H](C(=O)N[C@@H](Cc2ccccc2)C[C@H](O)[C@H](Cc2ccccc2)NC(=O)OCc2cncs2)C(C)C)cs1 [ritonavir]
saquinavir = compound: CC(C)(C)NC(=O)[C@@H]1C[C@@H]2CCCC[C@@H]2CN1C[C@@H](O)[C@H](Cc1ccccc1)NC(=O)[C@H](CC(N)=O)NC(=O)c1ccc2ccccc2n1 [saquinavir]
nelfinavir = compound: Cc1c(O)cccc1C(=O)N[C@@H](CSc1ccccc1)[C@H](O)CN1C[C@H]2CCCC[C@H]2C[C@H]1C(=O)NC(C)(C)C [nelfinavir]
lopinavir = compound: Cc1cccc(C)c1OCC(=O)N[C@@H](Cc1ccccc1)[C@@H](O)C[C@H](Cc1ccccc1)NC(=O)[C@H](C(C)C)N1CCCNC1=O [lopinavir]
indinavir = compound: CC(C)(C)NC(=O)[C@@H]1CN(Cc2cccnc2)CCN1C[C@@H](O)C[C@@H](Cc1ccccc1)C(=O)N[C@H]1c2ccccc2C[C@H]1O [indinavir]
tipranavir = compound: CCC[C@@]1(CCc2ccccc2)CC(O)=C([C@H](CC)c2cccc(NS(=O)(=O)c3ccc(C(F)(F)F)cn3)c2)C(=O)O1 [tipranavir]

Test System | fold change of IC50 against reference virus (atazanavir) | fold change of IC50 against reference virus (ritonavir) | fold change of IC50 against reference virus (saquinavir) | fold change of IC50 against reference virus (nelfinavir) | fold change of IC50 against reference virus (lopinavir) | fold change of IC50 against reference virus (indinavir) | fold change of IC50 against reference virus (tipranavir)
HIV-1 isolate 277 (protease changes: L10I L24I R41K M46I I54V I64V V77I V82A, study 64) | 1.8 | 23 | 0.9 | 5.2 | 12 | 4.9 | 0.5
HIV-1 isolate 46 (protease changes: T12N L63P H69Q V77I I93L, study 64) | 1 | 1 | 0.6 | 2.1 | 0.6 | 1.2 | 0.8
HIV-1 isolate 852 (protease changes: V77I I93L, study 64) | 0.8 | 0.8 | 0.8 | 1.4 | 0.7 | 1.1 | 0.7
HIV-1 isolate 1185 (protease changes: T12I L33V K45R R57K L63P I64V, study 15) | 1.3 | 1 | 0.9 | 1.7 | 0.8 | 1.2 | 1.6
HIV-1 isolate 984 (protease changes: L10I M46L I62V L63P I85V L90M I93L, study 64) | 2.9 | 7.1 | 3.2 | 4.9 | 2.8 | 3.4 | 0.4
HIV-1 isolate 752 (protease changes: L10I I13V K20R E35D M36I I62V L63P I64L T74S L90M, study 64) | 2 | 5.7 | 2.8 | 6 | 0.7 | 1.5 | 1
HIV-1 isolate 552 (protease changes: L10F I13V K20R V32I L33F M36I L63P A71V V82A L90M, study 64) | 9.3 | 66 | 4.9 | 23 | 16 | 14 | 1
HIV-1 isolate 833 (protease changes: R57G, study 76) | 1 | 1 | 1 | 1 | 1 | 1 | 1
HIV-1 isolate 1055 (protease changes: I13V N37T L63P, study 64) | 0.8 | 1.3 | 1.3 | 1.4 | 1 | 1.2 | 0.9
HIV-1 isolate 780 (protease changes: L63P V77I I93L, study 64) | 1.2 | 1.2 | 0.9 | 2.1 | 1.1 | 1.3 | 1.1
HIV-1 isolate 1433 (protease changes: L10I K20I E35D M36I M46I I62V L63P I64V A71V I72V L76V L90M I93L, study 64) | 1.9 | 6 | 3 | 9.3 | 18 | 23 | 0.6
HIV-1 isolate 334 (protease changes: I62V L63S, study 15) | 1 | 0.7 | 0.8 | 1.1 | 0.9 | 0.8 | 0.8
HIV-1 isolate 1300 (protease changes: I3L L10I R41K R57K L63Q I64V I72V V77I, study 64) | 0.9 | 0.9 | 0.6 | 1.1 | 0.8 | 1 | 0.8
HIV-1 isolate 632 (protease changes: L10I I15V L19I K20R E35D M36I N37E R41K I54V Q58E D60N I62V L63P K70R A71V G73S V82A L90M I93L, study 64) | 38 | ≥ 800 | 23 | 64 | 47 | 23 | 3.3
HIV-1 isolate 1395 (protease changes: L10I I15V L19I K20R M36I R41K M46L I54V L63P A71V L76V V82A L90M I93L, study 64) | 0.7 | 43 | 3.8 | 6.8 | 33 | 22 | 0.9
HIV-1 isolate 511 (protease changes: T4S L10H I13V E35D M36V M46I I62V L63P I64V A71V L90M I93L, study 64) | 7.6 | 18 | 5.7 | 46 | 4.6 | 12 | 5.1
HIV-1 isolate 1310 (protease changes: I15V L19T K20R M36I R41K I62V K70R V82L, study 64) | 1.2 | 4.3 | 1.1 | 0.9 | 0.8 | 0.7 | 2
HIV-1 isolate 222 (protease changes: T12R I15V L19I R41K H69Y, study 64) | 0.7 | 0.9 | 0.9 | 1.1 | 0.7 | 0.7 | 0.7

Fold change is the IC50 on the isolate divided by the IC50 on a reference virus; 1 = unchanged, higher = more resistant. Changes are given against the subtype B consensus. No active / inactive call. The values were gathered from many studies (numbered anew) with different assays, which the source does not name. Most viruses are clinical isolates; some are laboratory strains or clones with known resistance changes. Isolates with mixed residues are left out; stretches that were not sequenced show no change. Round top values that many isolates share are read here as limits; other very high values and 0.1 may be limits too. The protease changes I3V and N37S, insertions and deletions cannot be read from the source.
